Data reported in patent US20110045139A1, “FERMENTED SAUSAGE AND METHODS OF MAKING SAME” (priority 2009, published 2011).
Some compounds may have been tested in ways that are not shown here.

Test system: E. coli O157:H7 (5-strain cocktail)
Experiment: Minimum bactericidal concentration in broth
Type: cell-based, Escherichia coli O157:H7

ρ-hydroxybenzyl cyanide
Growth inhibition (p < 0.05) (E. coli O157:H7, pH 5.5, 25° C., 18 hours): 18.78 mM
inhibitory activity against E. coli O157:H7 (summary in words of Table 1): very weak
